Results of unrelated studies side by side (data: NIAID ChemDB).

All rows: whole-cell or culture tests; agent: HIV-1

Neighbouring rows are from separate reports. An empty or dashed field is not shown. ECn is the concentration giving n% inhibition of infection, replication or growth.

structure	mutations	endpoint	strain	setting	cell line	read by	result
C=C(C)C12C[C@@H](COC(C)=O)[C@@]3(OO1)[C@@H]1[C@H]2O[C@H](O)CCCCCC[C@@H](C)[C@H]2[C@H](C)[C@H](OCc4ccccc4)[C@@](O)([C@H](O)[C@@]4(CO)O[C@@H]14)[C@@H]23		EC90	NL4-3		MT-4	p24 / ELISA	0.0004 µM
C[C@H](Cn1cnc2c(N)ncnc21)OCP(=O)(O)O		EC50	96250	7 d, clinical isolate	PBMC	XTT / p24	0.01 µM
CC(C)=CCN1Cc2cc(Cl)cc3[nH]c(=S)n(c23)C[C@@H]1C	RT-E138K	EC50	IIIB		CEM	syncytia	0.311 µM
C[C@H](NC(=O)[C@H](CCCN=C(N)N)NC[C@@H](N)CCCN=C(N)N)c1cccc2ccccc12		EC50			MT-4	cytopathic effect	46 µM
Nc1ccn([C@H]2CC[C@@H](CO)O2)c(=O)n1		EC50	IIIB (BI-RG-587-RS)		MT-2	cytopathic effect / MTT	0.84 µM
Cc1cn([C@H]2C[C@H](N=[N+]=[N-])[C@@H](CO)O2)c(=O)[nH]c1=O		EC50	IIIB X4		C8166	syncytia	1.9 µM
C=C(C)C12C[C@@H](COCc3ccccc3)[C@@]3(OO1)[C@@H]1[C@H]2OCCCCCCC[C@@H](C)[C@H]2[C@H](C)C(=O)[C@@](O)([C@H](O)[C@@]4(CO)O[C@@H]14)[C@@H]23		EC90	NL4-3		MT-4	p24 / ELISA	0.0017 µM
CC[C@H](C)[C@H]1NC(=O)[C@@H](NC(=O)[C@@H](CC(C)C)N(C)S(=O)(=O)c2ccc(C)cc2)[C@@H](C)OC(=O)[C@H](Cc2ccc(OC)cc2)N(C)C(=O)[C@@H]2CCCN2C(=O)[C@H](CC(C)C)NC(=O)[C@H](C(C)C)OC(=O)C[C@@H]1O	Delta-env-VSV-Luc	EC50	NL4-3		MT-2	luciferase	0.053 µM
COC(=O)N[C@H](C(=O)N[C@@H](Cc1ccccc1)[C@@H](O)CN(Cc1ccc(-c2ccccn2)cc1)NC(=O)[C@@H](NC(=O)OC)C(C)(C)C)C(C)(C)C		EC50	MN		MT-2		<0.003 µM
Cc1cn([C@@H]2O[C@H](CO[Si](C)(C)C(C)(C)C)C3(OS(=O)(=O)C=C3N)[C@H]2O[Si](C)(C)C(C)(C)C)c(=O)n(C)c1=O	RT-A98S	EC50	Recombinant mutant		MT-4	cytopathic effect / MTT	0.011 µM
CO[P@](=O)(c1cc(C)cc(/C=C/C#N)c1)c1c(C(N)=O)[nH]c2ccc(Cl)cc12	Y181C/K103N	EC50	BH10		MT-4		0.0066 µM
O=c1ccn(/C=C\P(=O)(O)O)c(=O)[nH]1		EC50	IIIB		CEM + CEM-SS		>200 µM
Cc1cn([C@H]2C=C[C@@H](CO)O2)c(=O)[nH]c1=O	RT-K103N	EC50	HXB2		MAGI (CCR5) + MAGI	β-galactosidase	1.2 µM
CCn1c(=O)c(C)cn([C@@H]2O[C@H](CO[Si](C)(C)C(C)(C)C)C3(OS(=O)(=O)C=C3N)[C@H]2O[Si](C)(C)C(C)(C)C)c1=O	RT-E138K	EC50	IIIB		CEM	syncytia	>32.4 µM
C[C@H](NC[C@H](CCCN=C(N)N)NC(=O)[C@@H](N)CCCN=C(N)N)c1cccc2ccccc12		EC50			MT-4	cytopathic effect	52 µM
Cc1cn([C@H]2C[C@H](N=[N+]=[N-])[C@@H](CO)O2)c(=O)[nH]c1=O	MDR	EC50	MM		PBMC	p24	0.04 µM
C=C(C)C12C[C@@H](C)[C@@]3(OO1)[C@H]([C@H]2O/C=C/C=C/CCCCCCCCC)[C@@H]1O[C@]1(CO)[C@@H](O)[C@]1(O)C(=O)C(C)=C[C@H]13		EC90	NL4-3		MT-4	p24 / ELISA	0.0058 µM
COc1ccc2c(c1)N(C(=O)OC(C)C)[C@@H](CSC)C(=S)N2		EC50	Recombinant wild type		MT-4	cytopathic effect / MTT	0.0019 µM
Nc1ncnc2c1ncn2CCOCP(=O)(O)O		EC50	IIIB (BI-RG-587-RS)		MT-2	cytopathic effect / MTT	17.6 µM
Cc1cn([C@H]2C[C@H](N=[N+]=[N-])[C@@H](CO)O2)c(=O)[nH]c1=O		EC50	IIIB		CEM + CEM-SS	cytopathic effect / XTT	0.002 µM
Cc1cn([C@H]2C=C[C@@H](CO)O2)c(=O)[nH]c1=O		EC50	MOKW		PBMC	p24	0.015 µM
NC(N)=NCCC[C@H](NC(=O)[C@@H](N)Cc1ccc2ccccc2c1)C(=O)N[C@@H](CCCN=C(N)N)C(=O)Oc1ccc(F)cc1		EC50			MT-4	cytopathic effect	45 µM
CC[C@H](C)[C@H]1NC(=O)[C@@H](NC(=O)[C@@H](CC(C)C)N(C)C(=O)c2cc3ccccc3s2)[C@@H](C)OC(=O)[C@H](Cc2ccc(OC)cc2)N(C)C(=O)[C@@H]2CCCN2C(=O)[C@H](CC(C)C)NC(=O)[C@H](C(C)C)OC(=O)C[C@@H]1O		EC50	NL4-3		PBMC	luciferase	0.011 µM
c1cc(CN2CCCNCCNCCCNCC2)ccc1CN1CCCNCCNCCCNCC1	MDR	EC50	TM		PBMC	p24	0.008 µM
O=c1[nH]c(=O)n(/C=C\P(=O)(O)O)cc1F		EC50	IIIB		CEM + CEM-SS		>200 µM
Cc1cn([C@H]2C=C[C@@H](CO)O2)c(=O)[nH]c1=O		EC50	IIIB (BI-RG-587-RS)		MT-2	cytopathic effect / MTT	3.5 µM
CC(C)(C)NC(=O)[C@@H]1C[C@@H]2CCCC[C@@H]2CN1C[C@@H](O)[C@H](Cc1ccccc1)NC(=O)[C@H](CC(N)=O)NC(=O)c1ccc2ccccc2n1	MDR	EC50	JSL		PBMC	p24	0.08 µM
C[C@@H](N[C@@H](CCCN=C(N)N)C(=O)c1ccc(CNC(=O)c2ccc(C(F)(F)F)cc2)cc1)c1cccc2ccccc12		EC50			MT-4	cytopathic effect	7.4 µM
O=c1[nH]c(=O)n(/C=C/P(=O)(O)O)cc1Br		EC50	IIIB		CEM + CEM-SS		>200 µM
Cc1c(Sc2ccccc2)n(COCCO)c(=O)[nH]c1=O		EC50	IIIB (BI-RG-587-RS)		MT-2	cytopathic effect / MTT	>100 µM
CCOP(=O)(/C=C/n1ccc(=O)[nH]c1=O)OCC		EC50	IIIB		CEM + CEM-SS		>200 µM
Cc1cn([C@@H]2O[C@H](CO[Si](C)(C)C(C)(C)C)[C@@]3(OS(=O)(=O)C(/C=C/CO)=C3N)[C@H]2O[Si](C)(C)C(C)(C)C)c(=O)[nH]c1=O		EC50	IIIB		CEM	syncytia	>2 µM
CC[C@H](C)[C@H]1NC(=O)[C@@H](NC(=O)[C@@H](C)NC)[C@@H](C)OC(=O)[C@H](Cc2ccc(OC)cc2)N(C)C(=O)[C@@H]2CCCN2C(=O)[C@H](CC(C)C)NC(=O)[C@@H](C)C(=O)[C@H](C(C)C)OC(=O)C[C@@H]1O		EC50	NL4-3		PBMC	luciferase	10.27 µM
Nc1ncnc2c1ncn2CCOCP(=O)(O)O		EC50	LAI		PBMC	MTT	0.54 µM
CCOP(=O)(/C=C\n1cnc2c(=O)[nH]c(NC(C)=O)nc21)OCC		EC50	IIIB		CEM + CEM-SS		>200 µM

The last 3 rows once more:

structure	mutations	endpoint	strain	setting	cell line	read by	result
CC[C@H](C)[C@H]1NC(=O)[C@@H](NC(=O)[C@@H](C)NC)[C@@H](C)OC(=O)[C@H](Cc2ccc(OC)cc2)N(C)C(=O)[C@@H]2CCCN2C(=O)[C@H](CC(C)C)NC(=O)[C@@H](C)C(=O)[C@H](C(C)C)OC(=O)C[C@@H]1O		EC50	NL4-3		PBMC	luciferase	10.27 µM
Nc1ncnc2c1ncn2CCOCP(=O)(O)O		EC50	LAI		PBMC	MTT	0.54 µM
CCOP(=O)(/C=C\n1cnc2c(=O)[nH]c(NC(C)=O)nc21)OCC		EC50	IIIB		CEM + CEM-SS		>200 µM